Patent publication US8563067B2, “Extended shelf life and bulk transport of perishable organic liquids with low pressure carbon dioxide” (Cornell Research Foundation, Inc., priority 2004, dated 2013)

Key:
[1] = tested on: milk solids; test: Protein precipitation of raw milk under CO2 pressure (percentage precipitated solids); assay type: physicochemical; details: for precipitation: 5° C.
[2] = tested on: casein; details: cited from earlier work

Structure (SMILES): O=C=O [CO2, carbon dioxide]
- precipitation ([1]; pressures of less than 2067 kPa, even after 60 min): could not be detected
- precipitation ([1]; 689 kPa for 60 min, 1378 kPa for 30 min, 2757 kPa for 5 min, 3446 kPa for 5 min): did not cause detectable precipitation
- precipitated solids ([1]; 2067 kPa (300 psi), 30 min): 2.6 % (w/w)
- precipitation of milk solids ([1]; CO2 pressures greater than 1378 kPa (200 psi), 15 to 60 min, 20° C.): more than 1%
- precipitation of casein proteins from milk ([2]; 38° C., pressures above 5514 kPa (about 800 psi)): complete precipitation
- precipitation of skim milk casein ([2]; 3515 kPa, 50° C. (Jordan et al., 1987)): 99%
- raw skim milk caseins precipitated ([2]; CO2 pressures above 1998 kPa, 3 h, 40° C. (Calvo and Bacones, 2001)): 85%
- casein precipitation ([2]; CO2 pressures between 2757 and 5514 kPa, 38 to 49° C. (Tomasula, 1995)): complete casein precipitation
